Literature values, collected in patent US5051403A (priority 1989, dated 1991).

System: mammalian neuromuscular junction of skeletal muscle
Settings: isolated mouse diaphragm (Sano) and mouse triangularis sterni (Anderson); cited from earlier work

CSCC[C@@H]1NC(=O)[C@H](CC(C)C)NC(=O)[C@H](CCCNC(=N)N)NC(=O)[C@H](CO)NC(=O)[C@@H]2CSSC[C@@H]3NC(=O)[C@H](CO)NC(=O)CNC(=O)[C@H]([C@@H](C)O)NC(=O)[C@H](CSSC[C@H](N)C(=O)N[C@@H](CCCCN)C(=O)NCC(=O)N[C@@H](CCCCN)C(=O)NCC(=O)N[C@@H](C)C(=O)N[C@@H](CCCCN)C(=O)N2)NC(=O)[C@H](CSSC[C@@H](C(N)=O)NC(=O)[C@H](CCCCN)NC(=O)CNC(=O)[C@H](CO)NC(=O)[C@H](CCCNC(=N)N)NC3=O)NC(=O)[C@H](CC(=O)O)NC(=O)[C@H](Cc2ccc(O)cc2)NC1=O [MVIIA]
inhibition of neuromuscular transmission: little or no inhibitory efects
